Pooled drug test results. Numbers come from NIAID ChemDB, via PubChem.

All rows: growth or infection tests; organism: Influenza B virus; read-out: EC50

Two numbers with a dash give a range or band. Lines come from different laboratories, so protocols vary. ECn: concentration that inhibits the pathogen or its effect by n%. An empty or dashed field is not shown.

structure | strain | method | cell line | result
CCCN(CCCc1ccccc1)C(=O)[C@@H]1OC(C(=O)O)=C[C@H](N)[C@H]1NC(C)=O | - | plaque count | - | >1 µg/mL
CC=NC(=N)c1nc(-c2cccc(OC)c2)n(C/C=C/c2ccccc2)n1 | Singapore | cytopathic effect | MDCK | >100 µg/mL
CCCN(CCc1ccc(OC)cc1)C(=O)[C@@H]1OC(C(=O)O)=C[C@H](N)[C@H]1NC(C)=O | - | plaque count | - | 3.6 µg/mL
Nc1nccc(NCC2(CO)CCC2)n1 | B/GIFU/2/73 | plaque count | MDCK | >480 µM
CC1=C(C)C2(C)CCCC1C2N | - | plaque count | MDCK | 12.4 µM
Nc1nc(Cl)c(N)c(NCC2(CO)CCC2)n1 | B/GIFU/2/73 | plaque count | MDCK | 9.7–47 µM
CC=NC(=N)c1nc(-c2ccccc2)n(Cc2ccccc2)n1 | Singapore | cytopathic effect | MDCK | >20 µg/mL
CC1=C(C)C2C(N)C1CC[C@H]2C(C)C | - | plaque count | MDCK | ~15 µM
CC(=O)N[C@H]1[C@H]([C@H](O)[C@H](O)CO)OC(C(=O)O)=C[C@@H]1N=C(N)N | Beijing/184/93 | - | MDCK | 0.03 µM
CN(CC1(CO)CCC1)c1cc(Cl)nc(N)n1 | B/GIFU/2/73 | plaque count | MDCK | >120 µM
CC(=O)N[C@H]1[C@H]([C@H](O)[C@H](O)CO)OC(C(=O)O)=C[C@@H]1N=C(N)N | B/HONG KONG/5/72 | - | MDCK | 1 µM
CC=NC(=N)c1nc(-c2ccc(C)cc2)n(C/C=C/c2ccccc2)n1 | Singapore | cytopathic effect | MDCK | >20 µg/mL
Nc1nc2c(ncn2[C@@H]2O[C@H](CO)[C@@H](O)[C@H]2F)c(=O)[nH]1 | B/HONG KONG/73 | plaque count | MDCK | 2.5 µM
C/C=C\[C@@H]1C[C@H](C(=O)O)N[C@H]1[C@@H](NC(C)=O)[C@](C)(CCC)OC | Isolate G72 | plaque count | MDCK | <0.01 µg/mL
CC(C)C1CC2C(N)C(C1)[C@H](C)[C@@H]2C | - | plaque count | MDCK | 53 µM
CCCC(CCC)C(NC(C)=O)C1C(N=C(N)N)CC(C(=O)O)C1O | LEE/40 | - | MDCK | 8 µM
CC[C@@H]1C2CCCC(C2N)[C@@H]1CC | - | plaque count | MDCK | >100 µM
C=C(N=CC)c1nc(-c2ccc(C)cc2)n(C2O[C@H](CO)[C@@H](O)[C@H](O)[C@H]2O)n1 | Singapore | cytopathic effect | MDCK | >200 µg/mL
N#CNc1nncs1 | B/GREAT LAKES/1739/54 | plaque count | MDCK | 1.06 µg/mL
CCC(CC)O[C@@H]1C=C(C(=O)O)C[C@H](N)[C@H]1NC(C)=O | B/Harbin/07.94 | plaque count | MDCK | 0.091 µM
CC(=O)N[C@@H]1[C@@H](N)C=C(C(=O)O)O[C@H]1C(=O)N(CCc1ccccc1)CC(=O)O | - | plaque count | - | 11.5 µg/mL
C=C(N=CC)c1nc(-c2ccc(OC)cc2)n(C2O[C@H](CO)[C@@H](O)[C@H](O)[C@H]2O)n1 | Singapore | cytopathic effect | MDCK | >200 µg/mL
C[C@@H]1C2CCCC(C2N)[C@@H]1c1ccccc1 | - | plaque count | MDCK | >100 µM
CCC(CC)[C@H](NC(C)=O)[C@@H]1[C@H](O)[C@@H](C(=O)O)C[C@H]1N=C(N)N | HONG KONG/5/72 | - | MDCK | 2.2 µM
CC=NC(=N)c1nc(-c2cccc(C)c2)n(C/C=C/c2ccccc2)n1 | Singapore | cytopathic effect | MDCK | >20 µg/mL
Nc1nc(Cl)cc(NCC2(CO)CCC(OCc3ccccc3)C2)n1 | B/GIFU/2/73 | plaque count | MDCK | 1.1–1.5 µM
CCCN(CCc1ccccc1OC)C(=O)[C@@H]1OC(C(=O)O)=C[C@H](N)[C@H]1NC(C)=O | - | plaque count | - | 9 µg/mL
NC1C2CCCC1CC2 | - | plaque count | MDCK | 68 µM

For reference, 2 entries again:

structure	strain	method	cell line	result
Nc1nc(Cl)c(N)c(NCC2(CO)CCC2)n1	B/GIFU/2/73	plaque count	MDCK	9.7–47 µM
CC[C@@H]1C2CCCC(C2N)[C@@H]1CC	-	plaque count	MDCK	>100 µM